Data as given in PubChem BioAssay AID504761 (Drosophila RNAi Screening Center, 2011)

Screen: 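Insect host genes that dengue virus relies on to spread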 (primary screen)
System: D.Mel-2 cells from Drosophila
Knock-down reagent: long dsRNA against Drosophila genes
Challenge: infection with dengue virus type 2; dose and infection time not stated
Measured: 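Cells stained for dengue envelope protein and imaged; percent of infected cells per well on duplicate plates, ranked by infection, with stained nuclei counted for cell number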
Direction: infection score: higher = more virus-infected cells; cell count: higher = more cells in the well
Rule for the call: 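Very low infection ranking in both replicate wells (chance probability at most 0.065), then a retest showing infection dropped 1.5-fold or more at p below 0.05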
Meaning of the calls: active = confirmed: knock-down lowers infection; inactive = not picked or not confirmed
The screen tested about 22,000 reagents; below is an unselected part of those with a known target gene and a result. Of all reagents, 116 (0.52%) are marked active. 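Calls depend on retest data that are not deposited; infection was ranked per plate without normalising between plates; the unit of the infection score is not given.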 The raw values are shown without normalisation. Reagents against one gene are numbered here. Not all columns of the deposit are shown. The record does not give: the amount of reagent, the time to read-out.

For CG17239, how do the results read?
infection score, replicate 1: 6.41; cell count, replicate 1: 6118; call: inactive

How did the screen score CG14712?
infection score, replicate 1: 17.3; cell count, replicate 1: 1533; call: inactive

How did the screen score Ras85D?
infection score, replicate 1: 1.66; cell count, replicate 1: 6693; call: inactive

What did the screen give for CG7376?
infection score, replicate 1: 9.02; cell count, replicate 1: 6100; call: inactive

For Ms #1, what was measured?
infection score, replicate 1: 5.57; cell count, replicate 1: 6355; call: inactive

Which result is listed for Ms #2?
infection score, replicate 1: 14.5; cell count, replicate 1: 4779; call: inactive

With Ttc30 #1, how do the results read?
infection score, replicate 1: 2.64; cell count, replicate 1: 6319; call: inactive

Which result is listed for Ttc30 #2?
infection score, replicate 1: 0.9; cell count, replicate 1: 5877; call: inactive

With CG34393 #1, how do the results read?
infection score, replicate 1: 7.93; cell count, replicate 1: 6768; call: inactive

With CG34393 #2, how do the results read?
infection score, replicate 1: 22; cell count, replicate 1: 6735; call: inactive

What is on record for CG34393 #3?
infection score, replicate 1: 2.61; cell count, replicate 1: 6896; call: inactive

With CG34393 #4, what does the deposit list?
infection score, replicate 1: 4.7; cell count, replicate 1: 6623; call: inactive

With Sdr, how do the results read?
infection score, replicate 1: 4.13; cell count, replicate 1: 7261; call: inactive

Part of the list above, set out differently.
CG34393 #1
- infection score, replicate 1: 7.93
- cell count, replicate 1: 6768
- call: inactive

CG34393 #2
- infection score, replicate 1: 22
- cell count, replicate 1: 6735
- call: inactive

CG34393 #3
- infection score, replicate 1: 2.61
- cell count, replicate 1: 6896
- call: inactive

The list goes on:
For CG31832 #1, how do the results read?
infection score, replicate 1: 1.97; cell count, replicate 1: 6402; call: inactive

What did the screen give for CG31832 #2?
infection score, replicate 1: 11; cell count, replicate 1: 5004; call: inactive

How did the screen score CG6195 #1?
infection score, replicate 1: 10.4; cell count, replicate 1: 6825; call: inactive

Which result is listed for CG6195 #2?
infection score, replicate 1: 5.16; cell count, replicate 1: 7127; call: inactive

What is on record for CG14234 #1?
infection score, replicate 1: 4.69; cell count, replicate 1: 5716; call: inactive

For CG14234 #2, how do the results read?
infection score, replicate 1: 8.22; cell count, replicate 1: 5958; call: inactive

What did the screen give for Cpr47Ed?
infection score, replicate 1: 26.3; cell count, replicate 1: 4349; call: inactive

For CG34375 #1, what does the deposit list?
infection score, replicate 1: 3.68; cell count, replicate 1: 6544; call: inactive

With CG34375 #2, what does the deposit list?
infection score, replicate 1: 3.1; cell count, replicate 1: 6590; call: inactive

Which result is listed for CG34375 #3?
infection score, replicate 1: 4.72; cell count, replicate 1: 5870; call: inactive
